The entries are a selection whose mix differs from that of the whole data set. Records with an inconclusive call do not appear. For part of these data: Potency and affinity values are given separately. Active and inactive are the calls of the source.
Key:
[1] = Ebola virus entry assay, green channel fluorescence
[2] = Ebola virus entry assay, reporter ratio channel; Channel type: primary
[3] = Ebola virus entry assay, blue channel (ratio component)
[4] = qHTS assay for measurement of the activity of small molecule inhibitors on Zika virus induced Caspase-3 activity in human iPSC derived neural progenitor cells (hNPCs) (AID 1224857); settings: hNPCs ZIKV-induced caspase-3/7, Caspase-Glo luminescence, 6 h; at 45.7 µM (top of the series) unless noted; further: % of control where 0% means no effect; nearly all actives have a fitted effect of over 65% in size
[5] = qHTS assay for measurement of the activity of small molecule inhibitors on Zika virus induced Caspase-3 activity in human astrocytoma cells (AID 1224859); settings: SNB-19 ZIKV-induced caspase-3/7, luminescence, 6 h; at 45.7 µM (top of the series) unless noted;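 further: plate controls were ZIKV-infected untreated cells for no effect and uninfected cells for full effect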
[6] = NS1 protein of Zika virus - qHTS assay to identify small molecule inhibitors in human HEK 293 cells (AID 1347053); settings: HEK293 ZIKV MR766 infection, NS1 TR-FRET, 24 h; at 46.1 µM (top of the series) unless noted;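 further: plate controls were infected untreated cells for no effect and uninfected cells for full effect; nearly all actives have a fitted effect of over 55% in size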
[7] = qHTS for Inhibitors of the Functional Ribonucleoprotein Complex (vRNP) of Lassa (LASV) Arenavirus: LASV Primary Screen - GLuc reporter signal (AID 1347082; calls by dose curve; tested in HEK293 reporter line; further: on the % scale 0 is the no-effect control and ±100 the full control effect; nearly all actives have a fitted effect of over 60% in size); settings: LASV minigenome vRNP, Gaussia luciferase reporter; at 57.5 µM (top of the series) unless noted
[8] = qHTS for Inhibitors of the Functional Ribonucleoprotein Complex (vRNP) of Lassa (LASV) Arenavirus: Viability assay - alamar blue signal for LASV Primary Screen (AID 1347083; calls by dose curve; tested in HEK293 reporter line; further: on the % scale 0 is the no-effect control and ±100 the full control effect; nearly all actives have a fitted effect of over 80% in size); settings: cell viability, alamar blue fluorescence (LASV minigenome counter-screen); at 57.5 µM (top of the series) unless noted
[9] = qHTS for Inhibitors of the Functional Ribonucleoprotein Complex (vRNP) of Lymphocytic Choriomeningitis Arenaviruses (LCMV): Viability assay - alamar blue signal for LCMV Primary Screen (AID 1347085; calls by dose curve; tested in HEK293 reporter line; further: on the % scale 0 is the no-effect control and ±100 the full control effect; nearly all actives have a fitted effect of over 80% in size); settings: alamar blue viability counter-screen, LCMV vRNP screen cells; at 57.5 µM (top of the series) unless noted
[10] = molecular target: Nucleoprotein (Lymphocytic choriomeningitis virus (strain Armstrong)) (UniProt P09992); test: qHTS for Inhibitors of the Functional Ribonucleoprotein Complex (vRNP) of Lymphocytic Choriomeningitis Arenaviruses (LCMV): LCMV Primary Screen - GLuc reporter signal (AID 1347086; calls by dose curve; further: on the % scale 0 is the no-effect control and ±100 the full control effect; nearly all actives have a fitted effect of over 70% in size); settings: LCMV minigenome vRNP cell assay, Gaussia luciferase reporter; at 57.5 µM (top of the series) unless noted
[11] = test system: Zika virus NS2B-NS3 protease; test: Primary screen GU AMC qHTS for Zika virus inhibitors (AID 1347154); settings: Zika NS2B-NS3 unlinked protease, AMC fluorogenic substrate; at 54.1 µM (top of the series) unless noted;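 further: 0% = no-inhibitor control and -100% = no-enzyme control; nearly all actives have a fitted effect of over 70% in size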
[12] = Primary qHTS for inhibitors of MERS-S pseudo-typed particle cell entry (AID 1479149; calls by dose curve; further: nearly all actives have a fitted effect of over 60% in size); settings: MERS-S pseudotyped particle entry, luciferase; at 57.1 µM (top of the series)
[13] = Primary qHTS for Vero E6 cytotoxicity: counterscreen for inhibitors of SARS-S pseudo-typed particle cell entry (AID 1479150; calls by dose curve); settings: cell viability; at 57.1 µM (top of the series)
[14] = Primary qHTS for inhibitors of La Crosse Virus (LACV) - induced cell death in SH-SY5Y cells (AID 1508616); settings: SH-SY5Y LACV cytopathicity rescue, ATP luminescence, 6 d; at 9.63 µM (top of the series) unless noted;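 further: top concentration of the series differs between compounds; 0% = infected DMSO wells and 100% = uninfected DMSO wells; higher means more rescue of cells from virus-induced death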
In short: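 Luminescent ATP readout (ATPLite 1step, 5 min room temperature) measured rescue from LACV-induced death after 6 days of infection at 0.01 MOI; normalized to infected DMSO wells and uninfected DMSO wells.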

Amino acid sequences for entries named in this document (tags omitted). A change or cut given only in a name is not applied to a line headed by its entry.
UniProt P09992: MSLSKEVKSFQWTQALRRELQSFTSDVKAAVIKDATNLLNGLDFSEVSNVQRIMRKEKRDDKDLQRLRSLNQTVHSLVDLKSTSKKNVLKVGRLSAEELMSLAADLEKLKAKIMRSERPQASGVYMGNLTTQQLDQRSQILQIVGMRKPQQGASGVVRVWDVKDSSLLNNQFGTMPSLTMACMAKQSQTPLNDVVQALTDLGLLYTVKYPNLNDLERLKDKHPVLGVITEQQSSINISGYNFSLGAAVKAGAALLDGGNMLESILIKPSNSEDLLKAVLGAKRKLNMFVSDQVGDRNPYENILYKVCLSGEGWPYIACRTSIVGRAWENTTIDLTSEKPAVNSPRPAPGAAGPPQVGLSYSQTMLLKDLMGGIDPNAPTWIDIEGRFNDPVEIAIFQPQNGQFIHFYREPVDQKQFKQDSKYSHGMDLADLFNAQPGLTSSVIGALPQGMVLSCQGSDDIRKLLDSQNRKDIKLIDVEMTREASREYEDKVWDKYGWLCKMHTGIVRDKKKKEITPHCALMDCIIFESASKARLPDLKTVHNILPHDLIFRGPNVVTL
UniProt O15648: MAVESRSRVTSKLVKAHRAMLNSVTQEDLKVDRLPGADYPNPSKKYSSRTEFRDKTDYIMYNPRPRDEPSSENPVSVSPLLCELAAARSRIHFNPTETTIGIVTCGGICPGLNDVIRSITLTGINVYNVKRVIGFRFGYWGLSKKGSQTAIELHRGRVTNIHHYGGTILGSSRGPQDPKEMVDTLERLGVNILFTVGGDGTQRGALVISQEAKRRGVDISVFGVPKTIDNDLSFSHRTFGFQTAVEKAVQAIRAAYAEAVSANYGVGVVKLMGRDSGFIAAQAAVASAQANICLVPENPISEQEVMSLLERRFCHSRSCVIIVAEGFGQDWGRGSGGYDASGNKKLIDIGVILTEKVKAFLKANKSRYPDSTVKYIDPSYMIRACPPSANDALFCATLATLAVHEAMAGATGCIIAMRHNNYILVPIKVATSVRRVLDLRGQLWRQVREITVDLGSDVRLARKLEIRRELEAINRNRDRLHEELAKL
UniProt P13267: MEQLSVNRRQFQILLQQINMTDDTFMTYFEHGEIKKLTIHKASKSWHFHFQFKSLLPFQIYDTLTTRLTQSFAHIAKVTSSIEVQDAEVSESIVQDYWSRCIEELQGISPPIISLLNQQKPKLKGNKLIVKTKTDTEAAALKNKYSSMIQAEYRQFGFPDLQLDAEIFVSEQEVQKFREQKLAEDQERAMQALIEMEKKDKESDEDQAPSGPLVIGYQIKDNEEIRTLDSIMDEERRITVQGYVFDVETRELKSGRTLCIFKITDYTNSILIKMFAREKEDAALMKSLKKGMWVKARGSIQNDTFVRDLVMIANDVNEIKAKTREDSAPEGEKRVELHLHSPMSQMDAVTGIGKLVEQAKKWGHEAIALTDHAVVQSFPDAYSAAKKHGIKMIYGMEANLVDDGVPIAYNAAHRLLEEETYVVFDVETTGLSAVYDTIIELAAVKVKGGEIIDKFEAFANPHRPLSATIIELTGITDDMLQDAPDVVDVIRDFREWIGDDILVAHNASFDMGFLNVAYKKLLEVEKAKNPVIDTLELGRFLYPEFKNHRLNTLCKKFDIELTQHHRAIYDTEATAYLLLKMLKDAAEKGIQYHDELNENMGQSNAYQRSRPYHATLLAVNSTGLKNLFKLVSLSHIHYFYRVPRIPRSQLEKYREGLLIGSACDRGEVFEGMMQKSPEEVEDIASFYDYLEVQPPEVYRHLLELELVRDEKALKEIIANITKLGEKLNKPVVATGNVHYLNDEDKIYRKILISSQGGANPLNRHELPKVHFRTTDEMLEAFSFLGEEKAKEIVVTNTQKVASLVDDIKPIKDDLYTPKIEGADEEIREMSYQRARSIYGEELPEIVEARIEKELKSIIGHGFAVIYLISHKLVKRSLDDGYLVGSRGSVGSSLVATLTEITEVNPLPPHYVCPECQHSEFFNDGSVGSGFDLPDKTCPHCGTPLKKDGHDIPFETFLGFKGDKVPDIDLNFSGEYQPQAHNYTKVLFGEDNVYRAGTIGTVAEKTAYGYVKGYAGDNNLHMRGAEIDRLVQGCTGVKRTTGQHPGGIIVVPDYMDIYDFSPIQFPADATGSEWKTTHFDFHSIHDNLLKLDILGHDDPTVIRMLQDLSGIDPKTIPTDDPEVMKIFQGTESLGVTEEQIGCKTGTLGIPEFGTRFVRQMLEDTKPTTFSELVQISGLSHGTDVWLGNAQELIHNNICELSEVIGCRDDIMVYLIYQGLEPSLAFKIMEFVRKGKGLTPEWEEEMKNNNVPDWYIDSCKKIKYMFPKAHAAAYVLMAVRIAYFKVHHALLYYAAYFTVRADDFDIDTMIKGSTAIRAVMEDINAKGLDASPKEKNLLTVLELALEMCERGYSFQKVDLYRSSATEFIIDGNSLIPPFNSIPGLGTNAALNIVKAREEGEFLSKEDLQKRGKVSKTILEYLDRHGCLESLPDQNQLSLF
UniProt Q99816: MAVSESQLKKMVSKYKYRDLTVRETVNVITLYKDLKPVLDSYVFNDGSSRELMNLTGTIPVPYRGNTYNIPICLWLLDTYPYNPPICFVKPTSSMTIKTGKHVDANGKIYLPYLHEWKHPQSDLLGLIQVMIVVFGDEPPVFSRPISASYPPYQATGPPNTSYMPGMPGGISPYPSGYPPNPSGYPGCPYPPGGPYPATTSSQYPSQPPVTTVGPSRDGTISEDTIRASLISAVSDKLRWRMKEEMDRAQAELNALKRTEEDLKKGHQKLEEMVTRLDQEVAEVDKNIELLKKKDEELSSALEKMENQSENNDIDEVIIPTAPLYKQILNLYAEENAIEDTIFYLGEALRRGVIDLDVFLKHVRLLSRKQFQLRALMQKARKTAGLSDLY

[15] = Cytotoxicity counterscreen for inhibitors of SARS-CoV-2 cell entry (AID 1645845; calls by dose curve; further: on the % scale 0 is the no-effect control and ±100 the full control effect; nearly all actives have a fitted effect of over 50% in size); settings: cell viability (SARS-CoV-2 entry assay cells); at 57.1 µM (top of the series)
[16] = test system: Zika virus NS2B-NS3 protease (linked construct); test: Primary screen NINDS Rhodamine qHTS for Zika virus inhibitors (AID 1347160); settings: purified NS2B-NS3 protease, Rhodamine110 substrate fluorescence; activity change, negative = inhibition: at 57.1 µM (top of the series); further: nearly all actives have a fitted effect of over 55% in size
In short: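 Purified linked NS2B-NS3 protease (NS2B hydrophilic domain joined to NS3 protease by flexible linker), 25 nM in 10 mM Tris-HCl pH 8.0, 0.01% Tween 20. Compounds titrated, 15 min preincubation at room temperature; 1.5 microM Rhodamine110 substrate, FITC fluorescence change over 15 min.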

[17] = molecular target: ATP-dependent 6-phosphofructokinase (Trypanosoma brucei brucei) (UniProt O15648); test: qHTS Assay to Find Inhibitors of T. brucei phosphofructokinase: hit validation (AID 492961);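 further: luminescence reports ADP formed as PFK phosphorylates fructose-6-phosphate with ATP; on the % scale 0 is the no-effect control and ±100 the full control effect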; settings: T. brucei PFK, ADP-Glo luminescence; at 51.4 µM (top of the series)
In short: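 Measures ADP output of PFK (1.25 nM) at 0.1 mM ATP, 0.5 mM F6P, pH 8.0 TEA buffer with 5 mM MgCl2. No-enzyme wells define full inhibition; uninhibited enzyme wells define zero.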

[18] = Ebola virus entry assay, blue channel fluorescence
[19] = Ebola virus entry assay, ratio channel
[20] = molecular target: Endonuclease 4 (Escherichia coli (strain K12)) (UniProt P0A6C1); test: Counterscreen for APE1 Inhibitors: qHTS Validation Assay for Inhibitors of Endonuclease IV (AID 1708); further: on the % scale 0 is the no-effect control and ±100 the full control effect; settings: E. coli endonuclease IV, DNA cleavage fluorescence; at 57.1 µM (top of the series)
In short: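 Enzymatic AP-site incision assay using a double-stranded THF substrate labelled with TAMRA and BHQ-2; released fluorescence signals activity. Enzyme 2 nM, substrate 50 nM, 15 min compound preincubation.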

[21] = molecular target: DNA polymerase III PolC-type (Bacillus subtilis (strain 168)) (UniProt P13267); test: qHTS Validation Assay for the Inhibitors of DNA Replication in Gram-Positive Bacteria (AID 485295); settings: Gram-positive bacterial DNA replication assay; at 57.1 µM (top of the series);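 further: reconstituted holoenzyme with PolC plus beta clamp SSB and primase; PicoGreen fluorescence of double-stranded DNA made on primed circular M13 template; 0% = DMSO wells and -100% = EDTA-quenched background wells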
In short: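 PicoGreen fluorescence (ex 480–485/em 535–540 nm) reports dsDNA synthesized on ssM13Gori template with dNTPs/NTPs. Enzyme: holoenzyme rebuilt from purified PolC, beta subunit, SSB and primase. Compound preincubated before substrate addition; RT throughout.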

[22] = molecular target: Tumor susceptibility gene 101 protein (Homo sapiens) (UniProt Q99816); test: qHTS Validation Assay for Iinhibitors of HIV-1 Budding by Blocking the Interaction of PTAP/TSG101 (AID 485342; calls by dose curve; further: 0% is about no effect); settings: TSG101-PTAP binding, fluorescence polarization, 4-point titration; at 115 µM (top of the series)
In short: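 FP read-out: FITC-PTAP peptide, 50 nM final, binding Tsg101 binding domain, 10 uM final; 20 min r.t.; 10 mM HEPES pH 7.5, 0.15 M NaCl, 0.01% Tween 20, 3 mM EDTA, 0.1 mM TCEP.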

[23] = molecular target: Phosphoglycerate kinase, glycosomal (Trypanosoma brucei brucei) (UniProt P07378); test: qHTS Validation Assay to Find Inhibitors of Phosphoglycerate Kinase (AID 504547); settings: enzymatic PGK inhibition, coupled luminescence read-out; at 57.5 µM (top of the series);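 further: control wells lack PGK and mark full inhibition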
In short: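 Inhibition of the enzyme is judged by a Kinase-Glo Plus luminescent signal following a one-hour incubation at room temperature. Because 1,3-BPG is unstable, it is made in situ by GAPDH at 100nM final; no-PGK wells define the baseline.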

[24] = qHTS of Trypanosoma Brucei Inhibitors: LOPAC Validation (AID 624147); settings: Trypanosoma brucei growth inhibition; at 57.5 µM (top of the series); further: 0% is about no effect
In short: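 TbPYK + substrate in 50 mM TEA pH 7.2, 100 mM KCl, 10 mM MgCl2, 0.05% BSA, 0.01% Tween-20; cpd pinned; ADP 130 uM final; 45 min RT; Kinase-Glo Plus 10 min; luminescence endpoint.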

[25] = test system: Zika virus NS2B-NS3 protease (unlinked); test: Optimization of GU AMC qHTS for Zika virus inhibitors: Unlinked NS2B-NS3 protease assay (AID 1347151); settings: recombinant ZIKV NS2B-NS3 protease, fluorogenic AMC substrate; at 52.5 µM (top of the series);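 further: 0% = no-inhibitor control and -100% = no-enzyme control; nearly all actives have a fitted effect of over 80% in size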
In short: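 Fluorescence read-out (340 nm ex / 450 nm em) of AMC peptide cleavage, taken immediately and after 15 min at room temperature (~20% conversion). Enzyme was the unlinked NS2B–NS3 complex at 25 nM in Tris pH 8.0 buffer.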

NC(=O)Nc1ccc([As](=O)(O)O)cc1
inactive: outcome [1] | outcome [2] | outcome [3] | activity change, negative = inhibition [4] -5.09% | activity change, negative = inhibition [5] -18.2% | activity change, negative = inhibition [6] 10.3% | activity change, negative = inhibition [7] 1.94% | activity change, negative = reduced viability [8] 4.51% | activity change, negative = lower viability [9] 0.596% | activity change, negative = inhibition [10] -7.86% | activity change, negative = inhibition [11] -3.61% | outcome [12] | outcome [13] | activity change [14] 3.68% [at 4.29 µM] | activity change, negative = cytotoxicity [15] 1.79%

O=C(O[C@H]1CN2CCC1CC2)C1NCc2ccccc2[C@@H]1c1ccccc1 (stereo partly specified)
inactive: outcome [16]

CN(C(=O)Cc1ccccc1)[C@H]1CC[C@@]2(CCCO2)C[C@@H]1N1CCCC1
inactive: activity change, negative = inhibition [17] -3.96% | outcome [18] | outcome [19] | outcome [2] | outcome [3] | activity change, negative = inhibition [4] -1.01% | activity change, negative = inhibition [5] -0.842% | activity change, negative = inhibition [6] -2.47% | activity change, negative = inhibition [7] 4.56% | activity change, negative = reduced viability [8] 9.58% | activity change, negative = lower viability [9] 8.69% | activity change, negative = inhibition [10] 33.3% | activity change, negative = inhibition [11] 5.51% | activity change [14] -0.542% [at 4.29 µM]

Cc1cc([N+](=O)[O-])cc([N+](=O)[O-])c1O
inactive: outcome [19] | outcome [1] | outcome [2] | outcome [3] | activity change, negative = inhibition [6] 1.44% [at 92.8 µM] | activity change, negative = lower viability [9] 34.8% [at 115 µM] | activity change, negative = inhibition [11] -11.3% [at 104 µM] | activity change [14] 36.1% [at 8.54 µM]

CN(C(=O)Cc1ccc(Cl)c(Cl)c1)[C@@H]1CCCC[C@@H]1N1CCCC1
inactive: activity change, negative = inhibition [20] -6.83% | activity change, negative = inhibition [21] 4.15% | fluorescence change [22] -4.21% | activity, negative = inhibition [23] 0.048% | activity change, negative = inhibition [24] -6.3% | activity change, negative = inhibition [4] -2.51% | activity change, negative = inhibition [5] 2.5% | activity change, negative = inhibition [6] 3% | activity change, negative = inhibition [7] 4.64% | activity change, negative = reduced viability [8] -11.8% | activity change, negative = lower viability [9] -4.82% | activity change, negative = inhibition [10] 2.82% | activity change, negative = inhibition [25] 1.38%

Reference: PubChem BioAssay (NCATS)
